Measured values from several laboratories, pooled; numbers as filed in NIAID ChemDB.

Shared fields: tests in culture; organism: Mycobacterium tuberculosis

An empty or dashed field is not shown.

| compound | strain or isolate | read-out | method | cells | tested at | value |
|---|---|---|---|---|---|---|
| CCCCCCCCCSC(=S)N(C)NC(=O)c1ccccn1 | H37Rv | MIC | BACTEC |  |  | ≥128 µg/mL |
| CN1CCCC(COC(=O)c2ccc([N+](=O)[O-])cc2)C1 | H37Rv | MIC |  |  |  | 100 µg/mL |
| CC(C)=CCC/C(C)=C/CNCCN1CC2(C)CC1CC(C)(C)C2 |  | MIC |  |  |  | 12.5 µM |
| CCSCC(=O)Nc1cc(Cl)c(C)cc1O | H37Rv | MIC |  |  |  | 100 µg/mL |
| Nc1cc(=O)n(-c2ccccc2)[nH]1 | H37Rv | inhibition | resazurin |  | 6.25 µg/mL | -13% |
| CC(NCCN[C@@H]1C[C@@H]2C[C@H]([C@H]1C)C2(C)C)c1cccc2ccccc12 |  | MIC |  |  |  | 50 µM |
| OC1(C#CC2(O)CCCCC2)CCCCC1 | H37Rv | MIC |  |  |  | >100 µg/mL |
| CC1CCCC(NCCNC[C@@H]2CC[C@H]3C[C@@H]2C3(C)C)C1C |  | MIC |  |  |  | 6.25 µM |
| CO[C@H]1/C=C/O[C@@]2(C)Oc3c(C)c(O)c4c(O)c(c5c(c4c3C2=O)NC2(CCN(CC(C)C)CC2)N=5)=NC(=O)/C(C)=C\C=C\[C@H](C)[C@H](O)[C@@H](C)[C@@H](O)[C@@H](C)[C@H](OC(C)=O)[C@@H]1C | 9 (rifampin-resistant) | MIC |  |  |  | 0.05 µg/mL |
| NNC(=O)c1cccc(N)c1C(=O)NN | H37Rv | MIC | BACTEC |  |  | ≥12.5 µg/mL |
| O=[N+]([O-])c1ccc2c(c1)ncn2CO | H37Rv | MIC |  |  |  | 100 µg/mL |
| CCOC(=O)/C(ON)=C(/CC/C(C(=O)OC)=C(\ON)C(=O)OCC)C(=O)OC | H37Rv | inhibition | BACTEC |  | 12.5 µg/mL | 0% |
| O=C1c2ccccc2C(=O)c2c1cccc2N(CCO)CCO | H37Rv | MIC |  |  |  | >100 µg/mL |
| COc1ccccc1CCNCCNCCCCc1ccccc1 |  | MIC |  |  |  | 25 µM |
| O=C1Oc2ccccc2C(=O)Oc2ccccc2C(=O)Oc2ccccc2C(=O)Oc2ccccc21 | H37Rv | inhibition | BACTEC |  | 12.5 µg/mL | 14% |
| CN(CCN(C)c1ccc(N)cc1)c1ccc(N)cc1.O=S(=O)(O)O | H37Rv | MIC |  |  |  | >100 µg/mL |
| CN1CCOP(=O)(Oc2ccccc2)N1 | H37Rv | inhibition | BACTEC |  | 128 µg/mL | 95% |
| COc1ccc(CNCCNCCc2ccc(F)cc2)cc1OC |  | MIC |  |  |  | 50 µM |
| Cc1cc(C(N)=S)no1 |  | inhibition | resazurin |  | 6.25 µg/mL | -4% |
| CC(C)=CC/C(C)=C/CNCCNC(c1ccccc1)c1ccccc1 |  | MIC |  |  |  | 12.5 µM |
| COc1c2c(cc3c1C1Oc4c(ccc(O)c4CC=C(C)C)C1CO3)OC(C)(C)C=C2 | KM-R | MIC |  |  |  | 12.5 µg/mL |
| CC(C)c1ccc2c(c1)CC[C@H]1[C@](C)(CNCCNC3CCCCC3C)CCC[C@]21C |  | MIC |  |  |  | 25 µM |
| Cl.NC(c1ccccc1)c1ccccc1 | H37Rv | MIC |  |  |  | >100 µg/mL |
| CCCCC1CCCCCCc2[nH]c(/C=C3\N=C(c4ccc[nH]4)C=C3OC)cc21.Cl | TAC-R | MIC |  |  |  | 3.1 µg/mL |
| Cc1cccc(CNCCNCCc2ccc(Cl)cc2Cl)c1 |  | MIC |  |  |  | 12.5 µM |
| Cc1ccccc1NC(=O)C(=O)O | H37Rv | MIC |  |  |  | >100 µg/mL |
| CNC(=[SH+])[N-]/N=C(\C)c1ccccn1.[Cl][Cu] | H37Rv | MIC | BACTEC |  |  | 6.25 µg/mL |
| CC1(C)[C@H]2CC[C@@H](CNCCNCCC(c3ccccc3)c3ccccc3)[C@@H]1C2 |  | MIC |  |  |  | 6.25 µM |
| CCCCC(CC)CN1CN(CC(CC)CCCC)CC(C)(NCCNCC(O)CO)C1 |  | MIC |  |  |  | 25 µM |
| CO[C@H]1[C@@H](OC(=O)/C=C/C=C/C=C/C=C/C(=O)O)CC[C@@]2(CO2)[C@@H]1[C@@]1(C)O[C@@H]1CC=C(C)C | H37Rv | inhibition | BACTEC |  | 12.8 µg/mL | 17% |
| COc1ccc2[nH]c(=O)c(CCCC3CCCCC3)c(O)c2c1 | H37Rv | MIC |  |  |  | >100 µg/mL |
| C[C@@H]1[C@@H](NCCNCCCCc2ccccc2)C[C@H]2C[C@@H]1C2(C)C |  | MIC |  |  |  | 50 µM |
| CCOC(=O)CCCCCBr | H37Rv | MIC |  |  |  | 25 µg/mL |
| CCCCC(CC)CN1CN(CC(CC)CCCC)CC(C)(NCCNCCOC)C1 |  | MIC |  |  |  | 6.25 µM |
| CCCCCCCCc1ccccn1 | H37Rv | MIC |  |  |  | >100 µg/mL |
| Cc1ncc([N+](=O)[O-])n1CCSC#N | H37Rv | MIC bound | resazurin |  |  | >6.25 µg/mL |
| O=C(O)c1ccc(C(=O)c2ccccc2)c2c1C(=O)c1ccccc1C2=O | H37Rv | MIC |  |  |  | 100 µg/mL |
| COC(=O)C1(NC(=O)[C@H](CC(=O)OCc2ccccc2)NC(=O)OCc2ccccc2)CCCCCCC1 | H37Rv | MIC bound | resazurin |  |  | >6.25 µg/mL |
| CCOC(=O)C[N+](C)(C)C.[Cl-] | H37Rv | MIC |  |  |  | >100 µg/mL |
| CCCCC(CC)CN1CN(CC(CC)CCCC)CC(C)(NCCNC(C)CC)C1 |  | MIC |  |  |  | 6.25 µM |
| COc1ccc2c(c1)[n+]([O-])c(/C(C)=N/NC(=O)c1ccccc1O)c(C)[n+]2[O-] | H37Rv | MIC |  | VERO |  | 6.25 µg/mL |
| COc1cc(NC(C)=O)c2c(oc3ccccc32)c1OC | H37Rv | MIC |  |  |  | 100 µg/mL |

For reference, 3 entries again:

compound | strain or isolate | read-out | method | cells | tested at | value
CC(C)c1ccc2c(c1)CC[C@H]1[C@](C)(CNCCNC3CCCCC3C)CCC[C@]21C |  | MIC |  |  |  | 25 µM
COc1c2c(cc3c1C1Oc4c(ccc(O)c4CC=C(C)C)C1CO3)OC(C)(C)C=C2 | KM-R | MIC |  |  |  | 12.5 µg/mL
CCCCCCCCCSC(=S)N(C)NC(=O)c1ccccn1 | H37Rv | MIC | BACTEC |  |  | ≥128 µg/mL

Inhibition is in % at the dose shown (toxicity tests: loss of growth or viability). Rows are shuffled and stem from different studies. MIC bound: limit read from a one-dose screen.